# Values of other authors as cited in PubChem BioAssay AID977608.
# Key:
# Assay in all cases: protein-ligand inhibition affinities from structures – PDB-derived complexes (AID 977608)
# heat-labile enterotoxin = details: literature IC50, protein: heat-labile enterotoxin, chain 1LT5_D,1LT5_E, PDB entry 1LT5
# SARS-CoV M pro = details: literature IC50, protein: SARS-CoV M pro, chain 2VJ1_B, PDB entry 2VJ1
# [1] = target: heat-labile enterotoxin b chain; details: literature IC50, protein: heat-labile enterotoxin b chain, chain 1EFI_D,1EFI_E, PDB entry 1EFI
smiles,measurement,setting,value
OC[C@H]1O[C@@H](S[C@@H]2O[C@H](CO)[C@H](O)[C@H](O)[C@H]2O)[C@H](O)[C@@H](O)[C@H]1O,IC50,heat-labile enterotoxin,2000 µM
O=Cc1ccccc1,IC50,SARS-CoV M pro,5 µM
Nc1ccc(O[C@H]2O[C@H](CO)[C@H](O)[C@H](O)[C@H]2O)cc1,IC50,[1],12000 µM
